Source: PMC6222832, “Kinetic Characterization of Novel HIV-1 Entry Inhibitors: Discovery of a Relationship between Off-Rate and Potency” (Molecules : A Journal of Synthetic Chemistry and Natural …, 2018)

Molecular target: B41 SOSIP.664 gp140 trimer (Human immunodeficiency virus type 1, UniProt B3UES2, A505C/E513R/I563P/INS515RR/K514R/T609C)
Experiment: SPR direct interaction analysis, Biacore 8K
Parameters: species or system HIV-1
Details: calculated from rate constants, 1:1 binding model

Compound	Kd [nM]
COc1cnc(-n2cnc(C)n2)c2[nH]cc(C(=O)C(=O)N3CC4CN(C(=O)c5ccccc5)CC4C3)c12 (stereo not shown) [SC11]	66.3
COc1cnc(-n2cnc(C)n2)c2[nH]cc(C(=O)C(=O)N3CC(CSC(=O)c4ccccc4)C3)c12 [SC16]	69.3
COc1cnc(-n2cnc(C)n2)c2[nH]cc(C(=O)C(=O)N(C)C3CN(C(=O)c4ccccc4)C3)c12 [SC18]	1560
COc1cnc(-n2cnc(C)n2)c2[nH]cc(C(=O)C(=O)N3CC4C=NN(c5nnnn5-c5ccccc5)C4C3)c12 (stereo not shown) [SC39]	27400
